These results are taken from PubChem BioAssay AID1117264 (The Scripps Research Institute Molecular Screening Center, 2014).

By UniProt entry, the sequences of proteins in these tests, tags left out.
UniProt P86926, whole entry: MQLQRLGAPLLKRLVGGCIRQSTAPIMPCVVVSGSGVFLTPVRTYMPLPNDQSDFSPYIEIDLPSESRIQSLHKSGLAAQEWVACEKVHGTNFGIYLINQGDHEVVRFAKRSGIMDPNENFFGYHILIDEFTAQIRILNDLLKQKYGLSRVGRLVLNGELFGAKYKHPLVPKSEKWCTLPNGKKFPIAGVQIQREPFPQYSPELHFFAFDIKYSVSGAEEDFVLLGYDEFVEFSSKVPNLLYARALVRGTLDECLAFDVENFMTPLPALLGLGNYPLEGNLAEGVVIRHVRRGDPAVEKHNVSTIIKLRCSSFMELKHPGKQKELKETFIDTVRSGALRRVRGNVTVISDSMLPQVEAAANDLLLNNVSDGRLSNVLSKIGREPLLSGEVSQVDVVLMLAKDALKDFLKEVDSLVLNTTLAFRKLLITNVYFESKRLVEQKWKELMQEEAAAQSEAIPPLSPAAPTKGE

Only a part is listed here, and it is no random draw. The source made the active and inactive calls.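 The calls were made as follows: active = inhibition above the mean inhibition across all screened compounds plus 3 SD (cut at about 11% in these data); inactive = the rest.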

This test deals with RNA-editing ligase 1, mitochondrial (Trypanosoma brucei brucei) (UniProt P86926). The test is described as follows: TbREL1 RNA ligase inhibitors, primary screen, biochemical, FRET fluorescence (AID 1117264).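 Also: 0% = plate median of test wells and 100% = NSC42067 control.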 The note with it: TbREL1 RNA ligation, at 9.66 µM, active compounds read high.
Usually inhibition stands for the change of the read-out against control, counted positive when it falls. For `CP(=O)(Nc1ccccc1Br)Oc1ccccc1` (stereo not drawn), the inhibition was inactive: 1.02%.

With `COc1ccccc1OP(C)(=O)Nc1ccccc1` (stereo not drawn), the inhibition was inactive: -0.31%.

In the case of `CP(=O)(Oc1ccccc1)OC(c1ccccc1)C(F)(F)F` (stereo not drawn), the inhibition is inactive: 1.68%.

For the molecule `CCN(CC)CCCOC(=O)C(O)(c1ccccc1)c1ccccc1`, the inhibition was inactive: 3.08%.

As for `COc1ccccc1-c1ccccn1.O=[N+]([O-])c1cc([N+](=O)[O-])c(O)c([N+](=O)[O-])c1`, the inhibition is inactive: 3.42%.

With `CC(C)(C)c1ccc(OP(C)(=O)Nc2ccc(SC(F)(F)F)cc2)cc1` (stereo not drawn), the inhibition is inactive: 4.17%.

Consider `Cc1cc(C)cc(OP(C)(N)=O)c1` (stereo not drawn), for which the inhibition was inactive: 2.51%.

As to `COc1ccc(OP(C)(=O)Nc2cccc(F)c2)cc1` (stereo not drawn), the inhibition was inactive: 0.86%.

With `CCOC(=O)c1ccc(NP(C)(=O)Oc2ccccc2)cc1` (stereo not drawn), the inhibition is inactive: -0.98%.

As to `Cc1ccc(C)c(NP(C)(=O)Oc2ccccc2)c1` (stereo not drawn), the inhibition is inactive: -0.53%.

Take `CP(=O)(Nc1cccc(Br)c1)Oc1ccccc1` (stereo not drawn): the inhibition is inactive: -1.06%.

In the case of `CCCOc1ccc(NP(C)(=O)Oc2ccc(Cl)cc2)cc1` (stereo not drawn), the inhibition is inactive: -2.47%.

Consider `CP(=O)(Nc1ccc(Cl)cc1Cl)Oc1ccccc1` (stereo not drawn), for which the inhibition was inactive: 2.53%.

For the molecule `CP(=O)(Nc1ccccn1)Oc1ccccc1` (stereo not drawn), the inhibition is inactive: 2.61%.

As to `Cc1c(NP(C)(=O)Oc2ccc(C(C)C)cc2)c(=O)n(-c2ccccc2)n1C` (stereo not drawn), the inhibition is inactive: -2.82%.

For the molecule `COc1ccc(OP(C)(=O)Nc2ccc(Br)cc2)cc1` (stereo not drawn), the inhibition is inactive: 1.75%.

Take `CN(C)C(=O)c1c([N+](=O)[O-])cc([N+](=O)[O-])cc1[N+](=O)[O-]`: the inhibition is inactive: -1.18%.

Consider `CCOC(=O)c1ccc(NP(C)(=O)Oc2ccc(Cl)cc2)cc1` (stereo not drawn), for which the inhibition was inactive: 5.43%.
